Values from PubChem BioAssay AID504761 (Drosophila RNAi Screening Center, 2011)
The screen tested about 22,000 reagents; this is an unselected part of those that have a named target and a result. Of all reagents, 116 (0.52%) were called active. 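Calls depend on retest data that are not deposited; infection was ranked per plate without normalising between plates; the unit of the infection score is not given.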 Raw values vary from plate to plate and are shown uncorrected. Names joined by + are all predicted targets of the reagent. Not given: the amount of reagent, the time to read-out.

- Test: 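Genome-wide fly cell screen for genes dengue virus requires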 (primary screen)
- Cell system: D.Mel-2 cells from Drosophila
- Reagent: long dsRNA against Drosophila genes
- Conditions: infection with dengue virus type 2; dose and infection time not stated
- Detection: 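Per well on two replicate plates, imaging gave the percent of cells positive for viral envelope protein, ranked by infection, and a nuclear count of cells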
- Direction: infection score: higher = more virus-infected cells; cell count: higher = more cells in the well
- Hit rule: 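Low infection ranks in the two replicates (chance level up to 0.065) followed by a retest with a 1.5-fold or larger significant decrease, p below 0.05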
- Calls: active = confirmed: knock-down lowers infection; inactive = not picked or not confirmed

no.	gene	amplicon	infection score, replicate 1	infection score, replicate 2	cell count, replicate 1	cell count, replicate 2	call
1	Dhps (GeneID 38917)	DRSC10948	0.52	0.48	6185	6272	inactive
2	Amy-d (GeneID 36932)	DRSC05919	9.76	3.19	5346	846	inactive
3	Sar1 (GeneID 42615)	DRSC17049	1.38	2.78	6545	6221	inactive
4	Sar1 (GeneID 42615)	DRSC22115	0.78	1.81	5673	6130	inactive
5	Sar1 (GeneID 42615)	DRSC24141	1.25	1.06	3929	4251	inactive
6	CG34462 (GeneID 5740319)	DRSC10768	1.88	4.38	6172	6047	inactive
7	CG34462 (GeneID 5740319)	DRSC25352	6.48	2.86	6662	6255	inactive
8	LManV (GeneID 34205)	DRSC03223	17.1	30.6	6711	5498	inactive
9	LManV (GeneID 34205)	DRSC24176	3.7	6.59	6616	6053	inactive
10	scpr-C + scpr-B + scpr-A	DRSC26639	9.27	3.55	5068	6623	inactive
11	CG4658 (GeneID 34325)	DRSC02768	4.07	4.1	6609	6533	inactive
12	Spn55B (GeneID 49803)	DRSC07694	7.8	21	6220	5959	inactive
13	Spn55B (GeneID 49803)	DRSC21862	6.56	3.02	6856	6621	inactive
14	Spn55B (GeneID 49803)	DRSC27961	11.1	8.7	5354	5012	inactive
15	ZAP3 (GeneID 31942)	DRSC17852	6.08	5.58	5892	6182	inactive
16	ZAP3 (GeneID 31942)	DRSC17853	2.02	5.5	5743	6214	inactive
17	ZAP3 (GeneID 31942)	DRSC18249	15.4	12.1	3007	3748	inactive
18	CecC (GeneID 43599)	DRSC16606	3.79	1.57	3115	6618	inactive
19	CG14710 (GeneID 41393)	DRSC14933	11.7	16.9	5326	5532	inactive
20	CG9114 (GeneID 32460)	DRSC20155		3.02	345	529	inactive
21	CG43980 (GeneID 2768995)	DRSC11500	4.33	2.64	6092	5689	inactive
22	CG43980 (GeneID 2768995)	DRSC11646	2.89	4.76	6376	6297	inactive
23	CG43980 (GeneID 2768995)	DRSC26495	3.62	4.21	5722	6339	inactive
